Measured values from several laboratories, pooled; numbers as filed in NIAID ChemDB.

Common to all: tests in culture; agent: Hepatitis B virus; cell line: HepAD38; endpoint: EC50

An empty or dashed field is not shown. Conditions beyond the fields shown may differ between rows. ECn: concentration that inhibits the pathogen or its effect by n%.

SMILES,strain,method,result
Nc1nc2c(ncn2C=C2CC2CO)c(=O)[nH]1,-,-,>100 µg/mL
Nc1nc(=O)n([C@@H]2CC[C@H](CO)O2)cc1F,RTM204,-,<0.31 µM
N#CCc1c(N)nc(N)nc1OCCOCP(=O)(O)O,-,PCR,>300 µM
C[C@H](COc1cc(N)nc(N)n1)OCP(=O)(O)O,-,-,1.2 µg/mL
Cc1c(N)nc(N)nc1OCCOCP(=O)(O)O,-,PCR,3.2 µM
Nc1cc(OCCOCP(=O)(O)O)nc(N)n1,-,-,0.08 µg/mL
Nc1ccn([C@@H]2C=C[C@H](CO)O2)c(=O)n1,RTM204,-,<0.06 µM
Nc1ncnc2c1ncn2CCOCP(=O)(O)O,-,PCR,0.07 µM
Nc1nc(=O)n([C@@H]2C=C[C@H](CO)O2)cc1F,RTM204,-,<0.05 µM
C[C@H](Cn1cnc2c(N)ncnc21)OCP(=O)(O)O,-,-,0.05 µg/mL
Cc1c(N)nc(N)nc1OCCOCP(=O)(O)O,-,-,0.9 µg/mL
Nc1nc2c(ncn2[C@@H]2C=C[C@H](CO)CC2)c(=O)[nH]1,-,-,6 µg/mL
Nc1nc(=O)n([C@@H]2CS[C@H](CO)O2)cc1F,RTM204,-,<1.16 µM
C[C@H](COc1cc(N)nc(N)n1)OCP(=O)(O)O,-,PCR,4.3 µM
Nc1ncnc2c1ncn2CCOCP(=O)(O)O,-,-,0.05 µg/mL

For reference, 2 entries again:

SMILES	strain	method	result
Nc1nc(=O)n([C@@H]2C=C[C@H](CO)O2)cc1F	RTM204	-	<0.05 µM
Nc1nc(=O)n([C@@H]2CC[C@H](CO)O2)cc1F	RTM204	-	<0.31 µM